{"source": "paper PMC6669600", "about": "(Viruses, 2019)", "data": [{"test_system": "HIV-1NL4-3 pseudovirus", "format": "cell-based", "conditions": "HIV-1NL4-3(D36G) pseudovirus entry, TZM-bl cells; triplicate, repeated three times, mean ± SD; SD; read-out: Inhibition (IC50, nM) NL4-3 entry", "units": {"IC50": "nM"}, "values": [{"smiles": "CC[C@H](C)[C@H](NC(=O)[C@H](CC(C)C)NC(=O)[C@H](CCC(=O)O)NC(=O)[C@H](CCC(=O)O)NC(=O)[C@@H](NC(=O)[C@H](CCCCN)NC(=O)[C@H](CCCCN)NC(=O)[C@@H](NC(=O)[C@H](Cc1ccc(O)cc1)NC(=O)[C@H](CCC(=O)O)NC(=O)[C@H](CCC(=O)O)NC(=O)[C@@H](NC(=O)[C@H](CCCCN)NC(=O)[C@H](CCCCN)NC(=O)[C@H](CC(=O)O)NC(=O)[C@H](Cc1c[nH]c2ccccc12)NC(=O)[C@H](CCC(=O)O)NC(=O)[C@H](CCC(=O)O)NC(=O)[C@H](Cc1c[nH]c2ccccc12)NC(=O)[C@@H](NC(=O)[C@H](CCSC)NC(C)=O)[C@@H](C)O)[C@@H](C)CC)[C@@H](C)O)[C@@H](C)CC)C(N)=O", "note": "[MT-SC19EK]", "IC50": "5 ± 0.9"}, {"smiles": "CC[C@H](C)[C@H](NC(=O)[C@H](CC(C)C)NC(=O)[C@H](CCC(=O)O)NC(=O)[C@H](CCC(=O)O)NC(=O)[C@@H](NC(=O)[C@H](CCCCN)NC(=O)[C@H](CCCCN)NC(=O)[C@@H](NC(=O)[C@H](Cc1ccc(O)cc1)NC(=O)[C@H](CCC(=O)O)NC(=O)[C@H](CCC(=O)O)NC(=O)[C@@H](NC(=O)[C@H](CCCCN)NC(=O)[C@H](CCCCN)NC(=O)[C@H](CC(=O)O)NC(=O)[C@H](Cc1c[nH]c2ccccc12)NC(=O)[C@H](CCC(=O)O)NC(=O)[C@H](CCC(=O)O)NC(=O)[C@H](Cc1c[nH]c2ccccc12)NC(C)=O)[C@@H](C)CC)[C@@H](C)O)[C@@H](C)CC)C(=O)N[C@@H](CCCCN)C(=O)N[C@@H](CCCCN)C(=O)N[C@@H](CO)C(=O)N[C@@H](CCC(=O)O)C(=O)N[C@@H](CCC(=O)O)C(=O)N[C@@H](CCC(N)=O)C(N)=O", "note": "[SC25EK]", "IC50": "79.8 ± 9.3"}, {"smiles": "CC[C@H](C)[C@H](NC(=O)[C@H](CC(C)C)NC(=O)[C@H](CCC(=O)O)NC(=O)[C@H](CCC(=O)O)NC(=O)[C@@H](NC(=O)[C@H](CCCCN)NC(=O)[C@H](CCCCN)NC(=O)[C@@H](NC(=O)[C@H](Cc1ccc(O)cc1)NC(=O)[C@H](CCC(=O)O)NC(=O)[C@H](CCC(=O)O)NC(=O)[C@@H](NC(=O)[C@H](CCCCN)NC(=O)[C@H](CCCCN)NC(=O)[C@H](CC(=O)O)NC(=O)[C@H](Cc1c[nH]c2ccccc12)NC(=O)[C@H](CCC(=O)O)NC(=O)[C@H](CCC(=O)O)NC(=O)[C@H](Cc1c[nH]c2ccccc12)NC(=O)[C@@H](NC(=O)[C@H](CCSC)NC(C)=O)[C@@H](C)O)[C@@H](C)CC)[C@@H](C)O)[C@@H](C)CC)C(=O)N[C@@H](CCCCN)C(=O)N[C@@H](CCCCN)C(=O)N[C@@H](CO)C(=O)N[C@@H](CCC(=O)O)C(=O)N[C@@H](CCC(=O)O)C(=O)N[C@@H](CCC(N)=O)C(=O)N[C@@H](CCC(N)=O)C(=O)N[C@@H](CCCCN)C(=O)N[C@@H](CCCCN)C(=O)N[C@@H](CC(N)=O)C(=O)N[C@@H](CCC(=O)O)C(=O)N[C@@H](CCCCN)C(=O)N[C@@H](CCC(=O)O)C(=O)N[C@@H](CC(C)C)C(N)=O", "note": "[MT-SC33EK]", "IC50": "1.2 ± 0.1"}, {"smiles": "CC[C@H](C)[C@H](NC(=O)[C@H](CC(C)C)NC(=O)[C@H](CCC(=O)O)NC(=O)[C@H](CCC(=O)O)NC(=O)[C@@H](NC(=O)[C@H](CCCCN)NC(=O)[C@H](CCCCN)NC(=O)[C@@H](NC(=O)[C@H](Cc1ccc(O)cc1)NC(=O)[C@H](CCC(=O)O)NC(=O)[C@H](CCC(=O)O)NC(=O)[C@@H](NC(=O)[C@H](CCCCN)NC(=O)[C@H](CCCCN)NC(=O)[C@H](CC(=O)O)NC(=O)[C@H](Cc1c[nH]c2ccccc12)NC(=O)[C@H](CCC(=O)O)NC(=O)[C@H](CCC(=O)O)NC(=O)[C@H](Cc1c[nH]c2ccccc12)NC(=O)[C@@H](NC(=O)[C@H](CCSC)NC(C)=O)[C@@H](C)O)[C@@H](C)CC)[C@@H](C)O)[C@@H](C)CC)C(=O)N[C@@H](CCCCN)C(=O)N[C@@H](CCCCN)C(=O)N[C@@H](CO)C(=O)N[C@@H](CCC(=O)O)C(=O)N[C@@H](CCC(=O)O)C(=O)N[C@@H](CCC(N)=O)C(=O)N[C@@H](CCC(N)=O)C(=O)N[C@@H](CCCCN)C(N)=O", "note": "[MT-SC27EK]", "IC50": "1.1 ± 0.2"}, {"smiles": "CC[C@H](C)[C@H](NC(=O)[C@H](CC(C)C)NC(=O)[C@H](CCC(=O)O)NC(=O)[C@H](CCC(=O)O)NC(=O)[C@@H](NC(=O)[C@H](CCCCN)NC(=O)[C@H](CCCCN)NC(=O)[C@@H](NC(=O)[C@H](Cc1ccc(O)cc1)NC(=O)[C@H](CCC(=O)O)NC(=O)[C@H](CCC(=O)O)NC(=O)[C@@H](NC(=O)[C@H](CCCCN)NC(=O)[C@H](CCCCN)NC(=O)[C@H](CC(=O)O)NC(=O)[C@H](Cc1c[nH]c2ccccc12)NC(=O)[C@H](CCC(=O)O)NC(=O)[C@H](CCC(=O)O)NC(=O)[C@H](Cc1c[nH]c2ccccc12)NC(=O)[C@@H](NC(=O)[C@H](CCSC)NC(C)=O)[C@@H](C)O)[C@@H](C)CC)[C@@H](C)O)[C@@H](C)CC)C(=O)N[C@@H](CCCCN)C(=O)N[C@@H](CCCCN)C(=O)N[C@@H](CO)C(=O)N[C@@H](CCC(=O)O)C(=O)N[C@@H](CCC(=O)O)C(=O)N[C@@H](CCC(N)=O)C(=O)N[C@@H](CCC(N)=O)C(N)=O", "note": "[MT-SC26EK]", "IC50": "1.6 ± 0.2"}, {"smiles": "CC[C@H](C)[C@H](NC(=O)[C@H](CC(C)C)NC(=O)[C@H](CCC(=O)O)NC(=O)[C@H](CCC(=O)O)NC(=O)[C@@H](NC(=O)[C@H](CCCCN)NC(=O)[C@H](CCCCN)NC(=O)[C@@H](NC(=O)[C@H](Cc1ccc(O)cc1)NC(=O)[C@H](CCC(=O)O)NC(=O)[C@H](CCC(=O)O)NC(=O)[C@@H](NC(=O)[C@H](CCCCN)NC(=O)[C@H](CCCCN)NC(=O)[C@H](CC(=O)O)NC(=O)[C@H](Cc1c[nH]c2ccccc12)NC(=O)[C@H](CCC(=O)O)NC(=O)[C@H](CCC(=O)O)NC(=O)[C@H](Cc1c[nH]c2ccccc12)NC(=O)[C@@H](NC(=O)[C@H](CCSC)NC(C)=O)[C@@H](C)O)[C@@H](C)CC)[C@@H](C)O)[C@@H](C)CC)C(=O)N[C@@H](CCCCN)C(=O)N[C@@H](CCCCN)C(=O)N[C@@H](CO)C(=O)N[C@@H](CCC(=O)O)C(N)=O", "note": "[MT-SC23EK]", "IC50": "2.1 ± 0.2"}, {"smiles": "CC[C@H](C)[C@H](NC(=O)[C@H](CC(C)C)NC(=O)[C@H](CCC(=O)O)NC(=O)[C@H](CCC(=O)O)NC(=O)[C@@H](NC(=O)[C@H](CCCCN)NC(=O)[C@H](CCCCN)NC(=O)[C@@H](NC(=O)[C@H](Cc1ccc(O)cc1)NC(=O)[C@H](CCC(=O)O)NC(=O)[C@H](CCC(=O)O)NC(=O)[C@@H](NC(=O)[C@H](CCCCN)NC(=O)[C@H](CCCNC(=N)N)NC(=O)[C@H](CC(=O)O)NC(=O)[C@H](Cc1c[nH]c2ccccc12)NC(=O)[C@H](CCC(=O)O)NC(=O)[C@H](CCC(=O)O)NC(=O)[C@H](Cc1c[nH]c2ccccc12)NC(=O)[C@@H](NC(=O)[C@H](CCSC)NC(C)=O)[C@@H](C)O)[C@@H](C)CC)[C@@H](C)O)[C@@H](C)CC)C(=O)N[C@@H](CCCCN)C(=O)N[C@@H](CCCCN)C(=O)N[C@@H](CO)C(=O)N[C@@H](CCC(N)=O)C(=O)N[C@@H](CC(N)=O)C(=O)N[C@@H](CCC(N)=O)C(=O)N[C@@H](CCC(N)=O)C(=O)N[C@@H](CCC(=O)O)C(=O)N[C@@H](CCCCN)C(=O)N[C@@H](CC(N)=O)C(N)=O", "note": "[MT-WQ-EKN]", "IC50": "1.1 ± 0.1"}, {"smiles": "CC[C@H](C)[C@H](NC(=O)[C@H](CC(C)C)NC(=O)[C@H](CCC(=O)O)NC(=O)[C@H](CCC(=O)O)NC(=O)[C@@H](NC(=O)[C@H](CCCCN)NC(=O)[C@H](CCCCN)NC(=O)[C@@H](NC(=O)[C@H](Cc1ccc(O)cc1)NC(=O)[C@H](CCC(=O)O)NC(=O)[C@H](CCC(=O)O)NC(=O)[C@@H](NC(=O)[C@H](CCCCN)NC(=O)[C@H](CCCCN)NC(=O)[C@H](CC(=O)O)NC(=O)[C@H](Cc1c[nH]c2ccccc12)NC(=O)[C@H](CCC(=O)O)NC(=O)[C@H](CCC(=O)O)NC(=O)[C@H](Cc1c[nH]c2ccccc12)NC(C)=O)[C@@H](C)CC)[C@@H](C)O)[C@@H](C)CC)C(=O)N[C@@H](CCCCN)C(=O)N[C@@H](CCCCN)C(=O)N[C@@H](CO)C(=O)N[C@@H](CCC(=O)O)C(=O)N[C@@H](CCC(=O)O)C(=O)N[C@@H](CCC(N)=O)C(=O)N[C@@H](CCC(N)=O)C(=O)N[C@@H](CCCCN)C(=O)N[C@@H](CCCCN)C(=O)N[C@@H](CC(N)=O)C(=O)N[C@@H](CCC(=O)O)C(=O)N[C@@H](CCCCN)C(=O)N[C@@H](CCC(=O)O)C(=O)N[C@@H](CC(C)C)C(N)=O", "note": "[SC33EK]", "IC50": "1.1 ± 0.1"}]}, {"test_system": "HIV-1NL4-3 pseudovirus", "format": "cell-based", "conditions": "HIV-1NL4-3(D36G) pseudovirus entry, TZM-bl cells; triplicate, repeated three times, mean ± SD; read-out: Inhibition (IC50, nM) NL4-3 entry", "units": {"IC50": "nM"}, "values": [{"smiles": "CC[C@H](C)[C@H](NC(=O)[C@H](CC(C)C)NC(=O)[C@H](CCC(=O)O)NC(=O)[C@H](CCC(=O)O)NC(=O)[C@@H](NC(=O)[C@H](CCCCN)NC(=O)[C@H](CCCCN)NC(=O)[C@@H](NC(=O)[C@H](Cc1ccc(O)cc1)NC(=O)[C@H](CCC(=O)O)NC(=O)[C@H](CCC(=O)O)NC(=O)[C@@H](NC(=O)[C@H](CCCCN)NC(=O)[C@H](CCCCN)NC(=O)[C@H](CC(=O)O)NC(=O)[C@H](Cc1c[nH]c2ccccc12)NC(=O)[C@H](CCC(=O)O)NC(=O)[C@H](CCC(=O)O)NC(=O)[C@H](Cc1c[nH]c2ccccc12)NC(C)=O)[C@@H](C)CC)[C@@H](C)O)[C@@H](C)CC)C(=O)N[C@@H](CCCCN)C(=O)N[C@@H](CCCCN)C(=O)N[C@@H](CO)C(=O)N[C@@H](CCC(=O)O)C(=O)N[C@@H](CCC(=O)O)C(=O)N[C@@H](CCC(N)=O)C(=O)N[C@@H](CCC(N)=O)C(=O)N[C@@H](CCCCN)C(=O)N[C@@H](CCCCN)C(=O)N[C@@H](CC(N)=O)C(N)=O", "note": "[SC29EK, reference compound]", "IC50": 1.2}, {"smiles": "CC[C@H](C)[C@H](NC(=O)[C@H](CCCCN)NC(=O)[C@H](CCCCN)NC(=O)[C@H](CC(=O)O)NC(=O)[C@H](Cc1c[nH]c2ccccc12)NC(=O)[C@H](CCC(=O)O)NC(=O)[C@H](CCC(=O)O)NC(=O)[C@H](Cc1c[nH]c2ccccc12)NC(=O)[C@@H](NC(=O)[C@H](CCSC)NC(C)=O)[C@@H](C)O)C(=O)N[C@@H](CCC(=O)O)C(=O)N[C@@H](CCC(=O)O)C(=O)N[C@@H](Cc1ccc(O)cc1)C(=O)N[C@H](C(=O)N[C@@H](CCCCN)C(=O)N[C@@H](CCCCN)C(=O)N[C@H](C(=O)N[C@@H](CCC(=O)O)C(=O)N[C@@H](CCC(=O)O)C(=O)N[C@@H](CC(C)C)C(N)=O)[C@@H](C)CC)[C@@H](C)O", "note": "[MT-SC18EK]", "IC50": "> 2000"}]}]}
